A mixed list of measured activities; the numbers were collected in NIAID ChemDB.

Shared fields: toxicity to cultured cells; cell line: MT-4; read-out: CC50

CCn is the concentration with n% toxicity to the cells.

{"SMILES": "Cc1cn([C@@H]2O[C@@H]3CN[C@@]4(OCCO)CS(=O)(=O)O[C@@]34[C@H]2O[Si](C)(C)C(C)(C)C)c(=O)[nH]c1=O", "value": "59 µM"}
{"SMILES": "C[C@]1(Cn2cnc3c(=O)[nH]c(N)nc32)[C@@H](COCP(=O)(O)O)C1(F)F", "value": ">100 µM"}
{"SMILES": "COc1ccccc1NC(=O)CS(=O)c1nc(Nc2c(Cl)cc(/C=C/C#N)cc2Cl)c2cc(OC)c(OC)cc2n1", "read by": "MTT", "value": ">204 µM"}
{"SMILES": "CC1=C(C(=O)Nc2ccc([N+](=O)[O-])cc2)C2=NN=C(N)C2C(=O)N1", "read by": "MTT", "value": "71.5 µg/mL"}
{"SMILES": "COc1cccc(OC)c1C1SCC(=O)N1c1cccc(C)c1", "value": "208.7 µM"}
{"SMILES": "OCCOCn1c(-c2ccccc2)c(Br)c(Br)c1-c1ccccc1", "read by": "MTT", "value": "51 µM"}
{"SMILES": "CCc1c(Cc2cc(C)cc(C)c2)n(COCC2CC=CCC2)c(=O)[nH]c1=O", "read by": "MTT", "value": "24 µM"}
{"SMILES": "Cc1ccc(-c2cc(-c3ccc(Cl)cc3)nc(/N=C3\\C(=O)N(CN4CCOCC4)c4ccc(Br)cc43)n2)cc1", "read by": "MTT", "value": "1.9 µM"}
{"SMILES": "C=C(C)[C@@H]1C[C@@H](COC(=O)c2ccccc2)[C@@]23OC45OC1(O4)[C@@H]2[C@@H]1O[C@]1(CO)[C@@H](O)[C@@]1(O)[C@H]3[C@H]([C@H](C)[C@@H]1OC(=O)c1ccccc1)[C@H](C)CCCCCC[C@H]5O", "read by": "ATP / luminescence", "value": "≥1.29 µM"}
{"SMILES": "CCOCn1c(Cc2ccccc2)c(C(C)C)c(=O)[nH]c1=O", "read by": "MTT", "value": ">100 µM"}
{"SMILES": "N#Cc1ccc(Nc2nc(N)nc(Oc3ccc4ccccc4c3Cl)n2)c(F)c1", "value": "252 µM"}
{"SMILES": "COc1ccc2c(C#N)c3ccccc3c(NC(=S)N[C@H]3C[C@H](n4cc(C)c(=O)[nH]c4=O)O[C@@H]3CO)c2c1OC", "value": "5.12 µg/mL"}
{"SMILES": "COc1ccccc1N1CCN(c2c(F)cc3c(=O)c(C(=O)O)cn(CCOC(C)=O)c3c2OC(F)F)CC1", "value": "9.3 µg/mL"}
{"SMILES": "COc1cccc(Cn2c(-c3ccccc3F)nc3c(OC)cccc32)c1", "value": "6.8 µg/mL"}
{"SMILES": "CCn1cc(C(=O)O)c(=O)c2cc(F)c(N3CCN(c4ncccn4)CC3)c(OC(F)F)c21", "value": ">40 µg/mL"}
{"SMILES": "COc1cc2nc(S(=O)CC(=O)Nc3ccc(C(F)(F)F)cc3)nc(Nc3c(C)cc(/C=C/C#N)cc3C)c2cc1OC", "read by": "MTT", "value": "52.2 µM"}
{"SMILES": "O=[N+]([O-])c1cnn2c1n[n+]([O-])c1ccc(Cl)cc12", "value": "5.7 µM"}
{"SMILES": "CCO[C@]12CS(=O)(=O)O[C@@]13[C@@H](CN2)O[C@@H](n1ccc(=O)[nH]c1=O)[C@@H]3O[Si](C)(C)C(C)(C)C", "value": "119 µM"}
{"SMILES": "CC1COc2c(N3CCN(C)CC3)c(F)cc3c(=O)c(C(=O)O)cn1c23", "value": ">200 µM"}
{"SMILES": "COc1cccc(F)c1C1SCC(=O)N1c1cccc(C)c1", "value": "144.4 µM"}
{"SMILES": "Cc1ccc(-c2cc(-c3ccc(Cl)cc3)nc(/N=C3\\C(=O)N(CN(C)C)c4ccc(Br)cc43)n2)cc1", "read by": "MTT", "value": "12.9 µM"}
{"SMILES": "O=C(/C=C/c1ccccc1)c1ccccc1O", "read by": "MTT", "value": "324 µM"}
{"SMILES": "CN[C@@H]1[C@H](O[C@H]2[C@H](O[C@H]3[C@H](O)[C@@H](O)[C@H](N=C(N)N)[C@@H](O)[C@@H]3N=C(N)N)O[C@@H](C)[C@]2(O)C=O)O[C@@H](CO)[C@H](O)[C@H]1O", "value": ">200 µM"}
{"SMILES": "OCCOCn1c(-c2ccccc2)c(Br)c(-c2ccccc2)c1-c1ccccc1", "read by": "MTT", "value": "15 µM"}
{"SMILES": "Nc1ccn([C@H]2CC[C@@H](CO)O2)c(=O)n1", "read by": "MTT", "value": "1860 µM"}
{"SMILES": "COc1cc2nc(S(=O)CC(=O)Nc3ccc(C#N)cc3)nc(Nc3c(Cl)cc(/C=C/C#N)cc3Cl)c2cc1OC", "read by": "MTT", "value": ">188 µM"}
{"SMILES": "C=CCNc1nc(Nc2ccc(C#N)cc2F)nc(Oc2ccc3ccccc3c2Cl)n1", "value": ">279 µM"}
{"SMILES": "O=[N+]([O-])c1ccc2c(c1)nnc1c([N+](=O)[O-])cnn12", "value": "1.4 µM"}
{"SMILES": "CCn1cc(C(=O)O)c(=O)c2cc(F)c(N3CCN(c4cnccn4)CC3)c(OC(F)F)c21", "value": ">25.07 µg/mL"}
{"SMILES": "C[C@]1(Cn2cnc3c(=O)[nH]c(N)nc32)[C@H](COCP(=O)(O)O)C1(F)F", "value": ">100 µM"}
{"SMILES": "O=C(/C=C/c1ccc(Br)cc1)c1ccccc1O", "read by": "MTT", "value": "34.44 µM"}
{"SMILES": "CCCc1c(Cc2ccccc2)n(COCC2CC=CCC2)c(=O)[nH]c1=O", "read by": "MTT", "value": "34 µM"}
{"SMILES": "COc1cccc2c1nc(-c1ccccc1F)n2Cc1cc(F)ccc1F", "value": "14.7 µg/mL"}
{"SMILES": "COc1cccc(OC)c1C1SCC(=O)N1c1cc(C)cc(C)n1", "value": "310 µM"}
{"SMILES": "Cc1ccc(-c2cc(-c3ccc(Cl)cc3)nc(/N=C3\\C(=O)N(CN4CCCCC4)c4ccc(Br)cc43)n2)cc1", "read by": "MTT", "value": "<1 µM"}
{"SMILES": "CNc1nc(Nc2ccc(C#N)cc2F)nc(Oc2ccc3ccccc3c2)n1", "value": "236 µM"}
{"SMILES": "COc1cccc2c1nc(-c1ccccc1F)n2CCC=C(C)C", "value": "12.05 µg/mL"}
{"SMILES": "COc1ccc(/C=C/C(=O)c2ccccc2O)cc1", "read by": "MTT", "value": ">400 µM"}
{"SMILES": "COc1cccc2c1nc(-c1ccccc1F)n2Cc1cccc(Cl)c1", "value": "14.2 µg/mL"}
{"SMILES": "Cc1ccc(-c2cc(-c3ccc(Cl)cc3)nc(/N=C3\\C(=O)N(CN4CCCCC4)c4ccc(Cl)cc43)n2)cc1", "read by": "MTT", "value": "2.6 µM"}
{"SMILES": "N#Cc1cnn2c1n[n+]([O-])c1cc([N+](=O)[O-])ccc12", "value": "1 µM"}
{"SMILES": "COc1cccc2c1nc(-c1ccccc1F)n2Cc1ccc(C(C)(C)C)cc1", "value": "2.5 µg/mL"}
{"SMILES": "CCO[C@]12CS(=O)(=O)O[C@@]13C(CN2)O[C@@H](n1cc(C)c(=O)n(C)c1=O)[C@@H]3O[Si](C)(C)C(C)(C)C", "value": "49 µM"}
{"SMILES": "O=C(O)c1c([N+](=O)[O-])c(-c2ccccc2)n(COCCO)c1-c1ccccc1", "read by": "MTT", "value": ">300 µM"}
{"SMILES": "[O-][n+]1nc2c(Br)cnn2c2cc(Cl)ccc21", "value": ">200 µM"}
{"SMILES": "COc1ccccc1Cn1c(-c2ccccc2F)nc2c(OC)cccc21", "value": ">5 µg/mL"}
{"SMILES": "CC1=C(C(=O)Nc2ccc(Cl)c(Cl)c2)C2=NN=C(N)C2C(=O)N1", "read by": "MTT", "value": "71.08 µg/mL"}
{"SMILES": "CCc1c(Cc2cc(C)cc(C)c2)n(COC2C=CCCC2)c(=O)[nH]c1=O", "read by": "MTT", "value": "31 µM"}
{"SMILES": "COC(=O)c1cnn2c1nnc1ccccc12", "value": ">200 µM"}
{"SMILES": "COc1ccc(N2CCN(c3c(F)cc4c(=O)c(C(=O)O)cn(C5CC5)c4c3OC(F)F)CC2)cc1", "value": "50 µg/mL"}
{"SMILES": "CC1=C(C(=O)Nc2cc(Cl)ccc2Cl)C2=NN=C(N)C2C(=O)N1", "read by": "MTT", "value": "49.1 µg/mL"}
{"SMILES": "COc1cccc(N2CCN(c3c(F)cc4c(=O)c(C(=O)O)cn(C5CC5)c4c3OC(F)F)CC2)c1", "value": "24.86 µg/mL"}
{"SMILES": "Cc1cn([C@@H]2O[C@@H]3CN[C@@]4(OCC5CCOC5)CS(=O)(=O)O[C@@]34[C@H]2O)c(=O)[nH]c1=O", "value": ">250 µM"}
{"SMILES": "Nc1c(-c2ccccc2)c(-c2ccccc2)n(COCCO)c1-c1ccccc1", "read by": "MTT", "value": "42 µM"}
{"SMILES": "CC1=C(C(=O)Nc2ccc(Cl)cc2C)C2=NN=C(N)C2C(=O)N1", "read by": "MTT", "value": "60.4 µg/mL"}
{"SMILES": "COc1cccc(F)c1C1SCC(=O)N1c1cccc(C)n1", "value": "165.9 µM"}
{"SMILES": "CC(=O)OCCOCn1c(-c2ccccc2)c(N)c(C#N)c1-c1ccccc1", "read by": "MTT", "value": ">300 µM"}
{"SMILES": "COc1ccc(Cl)cc1NC(=O)C1=C(C)NC(=O)C2C(N)=NN=C12", "read by": "MTT", "value": "54.8 µg/mL"}
{"SMILES": "COc1cc2nc(SCC(=O)Nc3ccc(C(F)(F)F)cc3)nc(Nc3c(Cl)cc(/C=C/C#N)cc3Cl)c2cc1OC", "read by": "MTT", "value": ">50 µM"}
{"SMILES": "Clc1ccc2nnc3c(Br)cnn3c2c1", "value": ">200 µM"}
{"SMILES": "CCNc1nc(Nc2ccc(C#N)cc2F)nc(Oc2ccc(C)cc2)n1", "value": "243 µM"}

Neighbouring rows are from separate reports.